{"source": "patent US11197904B2", "about": "“Pharmaceutical compositions for preventions and managements of dementia, infectious diseases, cancers, periodontitis, dental caries, diabetes, obesity, osteoporosis and chronic pain and methods thereof” (Chung Shan Medical University, priority 2018, dated 2021)", "key": {"[1]": {"test_system": "Porphyromonas gingivalis (P.g.)", "assay": "Proliferation of cultured Porphyromonas gingivalis (OD600, 24 h)", "conditions": "single agent"}, "[2]": {"test_system": "Streptococcus mutans (S.m., UA159)", "assay": "Proliferation of cultured Streptococcus mutans UA159 (OD600, 24 h)", "conditions": "single agent"}}}
{"substance": "NaF", "values": [{"measurement": "IC50, 50% inhibition on bacterial proliferation, P. g.", "setting": "[1]", "result": 666, "unit": "µg/mL"}, {"measurement": "IC50, 50% inhibition on bacterial proliferation, UA159", "setting": "[2]", "result": 10, "unit": "µg/mL"}]}
